# Laboratory results from US11203613B2, “Peptidomimetic proteasome inhibitors” (CORNELL UNIVERSITY, priority 2017, dated 2021).
# Protein sequences, listed by entry. Tags and fused reporters are not part of them. Residues count along the entry.
# UniProt P9WHT9, 58-291 limits assumed: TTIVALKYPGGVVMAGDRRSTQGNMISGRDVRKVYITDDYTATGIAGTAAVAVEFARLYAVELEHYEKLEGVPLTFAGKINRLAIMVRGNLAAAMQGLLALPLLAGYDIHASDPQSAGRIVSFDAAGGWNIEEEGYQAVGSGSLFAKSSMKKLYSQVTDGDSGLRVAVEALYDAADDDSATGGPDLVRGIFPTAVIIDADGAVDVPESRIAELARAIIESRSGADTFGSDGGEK
# Where “and” joins values, the source holds several entries; their conditions need not be identical. Equal entries are not always repeated.
# Molecular target: Mtb20SOG (Mycobacterium tuberculosis, UniProt P9WHT9)
# Settings: read-out: Mtb20SOG IC50
row,Compound,IC50
1,"CC(C)CCC(=O)N[C@@H](CC(=O)N1CCC[C@@H]1c1ccccc1)C(=O)N[C@H](C)c1nc2ccccc2[nH]1 [CEN-49, N—((S)-1-(((R)-1-(1H-Benzo[d]imidazol-2-yl)ethyl)amino)-1,4-dioxo-4-((R)-2-phenylpyrrolidin-1-yl)butan-2-yl)-4-methylpentanamide]",636 nM and 420 nM
2,"C[C@H](NC(=O)[C@H](CC(=O)N1CCCC[C@@H]1C)Nc1nc2ccccc2o1)c1ncc(-c2ccc(F)cc2F)[nH]1 [CEN-109, (S)-2-(Benzo[d]oxazol-2-ylamino)-N—((S)-1-(5-(2,4-difluorophenyl)-1H-imidazol-2-yl)ethyl)-4-((S)-2-methylpiperidin-1-yl)-4-oxobutanamide]",2490 nM
